Inhibition data for 79 compounds are collected here from PubChem BioAssay AID1063 (University of Pittsburgh Molecular Library Screening Center, 2008).

Structures are written as SMILES. Only a part is listed here, and it is no random draw. Activity calls are given as the source filed them. Cut-off read from the data, not from the text of the source: active = inhibition above about 50%; inactive = the rest.

The term inhibition denotes the relative decrease from the control value, in per cent.

The test in a line: Leishmania major promastigote growth inhibition, primary screen (AID 1063).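 Note: promastigotes grown with compound for 44 hours at 28 °C.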 As to conditions: Leishmania major promastigotes, resazurin fluorescence viability; at 10 µM; stronger effect = higher value. (In general: The colour change of resazurin is a common sign of viable cells or microbes.)
`O=P1(Nc2ccccn2)COc2ccccc2OC1`: the inhibition is inactive: 1.07%.
Under `Clc1n[nH]nc1-c1nn[nH][15n]1` stands inactive: -5.31%.
Under `CC(C)/C=N\N=C(\N)N[N+](=O)[O-]` stands inactive: -6.7%; under `CC1(CBr)Cn2c(nc3ccccc3c2=O)S1` (centres undefined), inactive: 17.1%; under `Cc1nn(-c2ccccc2)c2c1P(=O)(N1CCOCC1)N(C)C(c1ccccc1)=N2` (centres undefined), inactive: -5.4%.
Under `CC1CCC(C(C)C)C(OP(=O)(Nc2ccccn2)c2ccccc2)C1` (centres undefined) stands inactive: 26.7%.
As for `CN(C)C1(CNC(=O)c2ccc(S(C)(=O)=O)cc2)CCCCC1`, the inhibition was inactive: -4.28%.
Consider `O=P1(Nc2ncccn2)COc2ccccc2OC1`, for which the inhibition was inactive: -2.84%.
Under `O=P1(Nc2ccc(Br)cn2)COc2ccccc2OC1` stands inactive: -5.08%; under `Cc1ccc(OCC(=O)OC2CN3CCC2CC3)cc1` (centres undefined), inactive: -4.42%.
Under `CCOP1(=S)c2c(C)nn(CCC#N)c2N=C(c2ccccc2F)N1C` (centres undefined) stands inactive: -5.19%; under `O=P(Nc1nccs1)(c1ccccc1)c1nc2ccccc2s1` (centres undefined), inactive: -6.01%.
As to `O=P(Nc1nccs1)(Oc1ccccc1)Oc1ccccc1`, the inhibition was inactive: -0.81%.
Under `CCOP1(=S)c2c(C)nn(CCC#N)c2N=C(c2ccc(F)cc2)N1C` (centres undefined) stands inactive: -6.15%; under `O=[N+]([O-])c1ccc2c(c1)nnn2O`, inactive: -4.41%; under `COc1cc(C(=O)NCC2(N3CCOCC3)CCCCC2)cc(Cl)c1OC(C)C`, inactive: 26.6%.
To `Cc1cccc(OCC(=O)OC2CN3CCC2CC3)c1` (centres undefined) belongs inactive: -5.03%.
Under `Cc1ccc(NCCc2c([N+](=O)[O-])cc([N+](=O)[O-])cc2[N+](=O)[O-])cc1` stands active: 64.8%; under `COc1cc(C2NCCC3(OCCO3)C2(C)C)cc(OC)c1OC` (centres undefined), inactive: 48.5%.
As for `CCOP(=O)(Nc1cccc2ccccc12)OCC`, the inhibition was inactive: -3.89%.
As to `Cc1c2c(nc3ccccc13)SC(C(Cl)Cl)C2` (centres undefined), the inhibition is inactive: -4.15%.
Under `O=C(OC1CN2CCC1CC2)C12CC3CC(CC(C3)C1)C2` (centres undefined) stands active: 86.5%; under `Cc1cc(=O)[nH]c(N[N+](=O)[O-])n1`, inactive: -6.44%; under `COc1ccc2nc(NP(=O)(c3ccccc3)c3ccccc3)sc2c1`, inactive: 4.85%.
To `COc1ccc(N/C(=N/P(=O)(N2CCOCC2)N2CCOCC2)N2CCOCC2)cc1` belongs inactive: -8.13%; to `Cc1ccc2nc3c(c(C)c2c1)CC(C(Cl)Cl)S3` (centres undefined), inactive: 1.95%; to `ClCCSc1nnc(-c2cccnc2)o1`, inactive: -2.71%.
Under `CCN(CC)C(=S)SC(NC=O)C(Cl)(Cl)Cl` (centres undefined) stands active: 100%.
In the case of `CC(C)NC(=O)NP(=O)(Oc1ccccc1)Oc1ccccc1`, the inhibition is inactive: -6.55%.
For the compound `O=[N+]([O-])c1cc([N+](=O)[O-])c(-c2ccn[nH]2)s1`, the inhibition was active: 100%.
For the compound `Cc1cc(SC(NC(=O)c2ccccc2)C(Cl)(Cl)Cl)nc(C(C)C)n1` (centres undefined), the inhibition is inactive: -1.35%.
Under `O=P(Nc1ccccn1)(c1cccc2ccccc12)c1cccc2ccccc12` stands inactive: 4.71%; under `Cc1cc(SC(NC=O)C(Cl)(Cl)Cl)ncn1` (centres undefined), inactive: -5.25%; under `COP1(=S)c2c(C)nn(CCC#N)c2N=C(c2ccc(F)cc2)N1C` (centres undefined), inactive: 1.43%.
To `O=C(COc1ccccc1)OC1CN2CCC1CC2` (centres undefined) belongs inactive: -0.22%.
With `CCC(C)N(CC(C)C)C(=S)SC(NC(C)=O)C(Cl)(Cl)Cl` (centres undefined), the inhibition was inactive: 30.9%.
Under `COc1ccc(C2=NCC(CBr)S2)cc1` (centres undefined) stands inactive: -7.26%.
Under `Cc1ccc(NP(=O)(Oc2ccccc2)Oc2ccccc2)nc1` stands inactive: 17.5%.
To `CCc1nc2c(n1)c1c(non1O)c1c2no[n+]1[O-]` belongs active: 55.3%; to `O=[N+]([O-])c1cc([N+](=O)[O-])c(CCNc2ccccc2)c([N+](=O)[O-])c1`, active: 98.6%.
Regarding `O=[N+]([O-])c1cccc2n[nH]nc12`, the inhibition is inactive: -3.6%.
For `CC(=O)N1C2C3N(C(C)=O)C1C1N(C(C)=O)C(C(N1C(C)=O)N3C(C)=O)N2C(C)=O`, the inhibition was inactive: -4.82%.
To `CCN(/C(=N/P(=O)(N1CCOCC1)N1CCOCC1)N1CCOCC1)c1ccc(OC)cc1` belongs inactive: -6.79%; to `CC1CCN(C(=O)Oc2c(Cl)cc(Cl)c3cccnc23)CC1`, inactive: 14.8%; to `CC(C)=N/N=C(\N)N[N+](=O)[O-]`, inactive: -3.38%.
For `CN(C)C(=O)OCCc1n(C)cc[n+]1C`, the inhibition was inactive: -5.28%.
On to `O=[N+]([O-])c1ncn(CCn2ncnc2[N+](=O)[O-])n1`, for which the inhibition was inactive: 7.1%.
To `CCOP(=O)(Nc1ccccc1)OCC` belongs inactive: -1.24%.
To `Cc1cc(SC(NC(=O)c2ccc(F)cc2)C(Cl)(Cl)Cl)ncn1` (centres undefined) belongs inactive: -3.6%; to `CCN(N=Nc1nonc1N)c1nonc1N`, inactive: 37.5%; to `Cc1ccc(N/C(=N/P(=O)(N2CCOCC2)N2CCOCC2)N2CCOCC2)cc1`, inactive: 4.84%.
Take `NC(=O)c1cc([N+](=O)[O-])cc([N+](=O)[O-])c1N`: the inhibition was inactive: 18.2%.
Under `Clc1ccc(Cl)c(NC2=NCC(CBr)S2)c1` (centres undefined) stands inactive: 7.89%; under `CN1CCCC(OC(=O)C(c2ccccc2)c2ccccc2)C1` (centres undefined), inactive: 5.89%; under `COc1ccccc1OP(=O)(Nc1ccc(C)cn1)Oc1ccccc1OC`, inactive: 4.5%.
For `Oc1ccccc1CNc1ccccn1`, the inhibition was inactive: -1.34%.
Under `Cc1c2non([O-])c-2c(C)[n+](=O)[n+]1[O-]` stands inactive: 17.3%; under `O=C(NC(Sc1ccncn1)C(Cl)(Cl)Cl)c1ccccc1` (centres undefined), inactive: -2.22%.
To `CC(C)CC(=O)NC(Sc1ccc(Cl)cc1)C(Cl)(Cl)Cl` (centres undefined) belongs inactive: 14.4%; to `O=P1(Nc2nc3ccc(Cl)cc3s2)COc2ccccc2O1` (centres undefined), inactive: 6.7%.
`CCOc1ccc(C2=NCC(CBr)S2)cc1` (centres undefined): the inhibition is inactive: -7.53%.
Consider `CC(C)(C)C(=O)NC(Sc1ccccc1)C(Cl)(Cl)Cl` (centres undefined), for which the inhibition is inactive: 11.9%.
To `CC(=O)Nc1ccc(Oc2c([N+](=O)[O-])cc([N+](=O)[O-])cc2[N+](=O)[O-])cc1` belongs inactive: -6.47%; to `c1ccc(-c2nn[nH]n2)c(-c2nn[nH]n2)c1`, inactive: -4.61%; to `CCOC(=O)NC(Sc1ccccc1)C(Cl)(Cl)Cl` (centres undefined), inactive: 6.45%.
To `CCNC(=S)/N=C(\N)N[N+](=O)[O-]` belongs inactive: -4.71%; to `O=C(NC1CCS(=O)(=O)C1)NP(=S)(Oc1ccccc1)Oc1ccccc1` (centres undefined), inactive: -7.65%.
Turning to `CCC(=O)N1C2C3N(C(=O)CC)C1C1N(C(=O)CC)C(C(N1C(=O)CC)N3C(=O)CC)N2C(=O)CC`, the inhibition is inactive: -6.99%.
Under `COC(=O)c1cc2c(s1)N=C(c1ccccc1)N(C)P2(=O)N1CCOCC1` (centres undefined) stands inactive: 14.7%.
As for `Cc1ccc(OP(=O)(Nc2ccccn2)Oc2ccc(C)cc2)cc1`, the inhibition is active: 96.5%.
Under `CC(=O)NC(SC(=S)N(CC(C)C)CC(C)C)C(Cl)(Cl)Cl` (centres undefined) stands inactive: 32.5%; under `O=c1c2cc([N+](=O)[O-])ccc2[nH]c2c([N+](=O)[O-])cc([N+](=O)[O-])cc12`, active: 100%.
To `O=P(Nc1ccccn1)(c1ccc(Br)cc1)c1ccc(Br)cc1` belongs active: 88%.
Under `CC(=O)NC(SC(=S)N(C)C)C(Cl)(Cl)Cl` (centres undefined) stands active: 100%; under `O=C(OC1CN2CCC1CC2)c1cccc(Cl)c1` (centres undefined), inactive: 18.2%; under `C(Cc1nn[nH]n1)Cc1nn[nH]n1`, inactive: -9.83%.
Regarding `CC(C)C(=O)NC(Sc1ccccc1)C(Cl)(Cl)Cl` (centres undefined), the inhibition is inactive: -0.64%.
As for `O=P(Nc1nccs1)(c1ccccc1)c1ccccc1`, the inhibition is inactive: -3.67%.
Under `c1nnnn1CCn1cnnn1` stands inactive: -11.7%.
